The text below walks through data of US5552405A, “Substituted pyrrolidine derivatives as HIV protease inhibitors” (Bio-Mega/Boehringer Ingelheim Research, Inc., priority 1995, dated 1996).

The structures given here were assigned with low confidence; some may be wrong.

In this test the target is HIV protease (Human immunodeficiency virus type 1 group M subtype B, UniProt P04585). The experiment in a line: Recombinant HIV Protease HPLC Assay. As to conditions: read-out: IC50, concentration of the test compound which causes a 50% inhibition of the HIV-protease; recombinant HIV protease expressed in E. coli; substrate VSFNFPQITL-NH2; pH 5.5; 37°, 30 min. An excerpt: The procedure is based on the capacity of the test compound to inhibit enzymatic cleavage by HIV protease of a decapeptide (the substratel having an amino acid sequence which includes a known HIV protease cleavage site of a HIV polyprotein; see H. G. Krausslich et al., Proc. Natl. Acad. Sci. U.S.A., 86, 807 (1989). Details of this assay together with the results obtained for exemplified compounds of formula 1 are described in the examples hereinafter.
Enzyme: HIV protease was expressed in E. coli {construct pBRT1 prt^+, see W. G. Farmerie et al., Science, 236, 305 (1987)}, according to the following protocol: Unless stated otherwise, all solutions are aqueous solutions.
E. coli cells containing the pBRT1 prt^+ plasmid were used to inoculate a seed culture media composed of Luria-Bertani Broth containing 100 μg/mL of ampicillin. Flasks were incubated at 37° under agitation for 17 h. Production flasks containing sterile M9 broth, supplemented with 100 μg/mL of ampicillin, were inoculated at a level of 1% (v/v) using the seed culture described above. Total volume in each production flask was 500 mL in a 2 L Erlenmeyer flask. Flasks were incubated at 37° under agitation until a cell concentration corresponding to an optical density (λ=540 μm) of 0.6 was reached (no dilution). This time span was routinely 3-4 h. […]

With `CC(C)[C@H](NC(=O)OCc1ccccc1)C(=O)N[C@@H](Cc1ccccc1)[C@H](O)CN1C[C@@H](OCc2ccccc2)C[C@H]1C(=O)NC(C)(C)C`, the IC50 was 150 nM.
